A mixed list of measured activities; the numbers were collected in NIAID ChemDB.

Common to all: tests in culture; agent: Hepatitis B virus

ECn is the concentration giving n% inhibition of infection, replication or growth.

COC(=O)CN1C(c2ccccn2)=NC(c2ccccc2Cl)C(C(=O)OC)=C1C ; cell line: HepG2.2.15 ; endpoint: EC50 ; value: >100 µM
CNCc1ccc(-c2ccc3ncnc(Nc4ccc(N5CCOCC5)cc4)c3c2)o1 ; read by: replicon ; cell line: HUH 9B ; endpoint: EC50 ; value: 5–25 µM
C[C@H]1CN(c2ccc(-n3c(C(=O)NCc4ccccc4)c4n(c3=O)CCN(C(=O)c3ccc(Br)c(Cl)c3)C4)cc2)CCO1 ; read by: PCR ; cell line: HepG2.117 ; endpoint: EC50 ; value: 0.1–0.5 µM
COCCCOc1cc2c(cc1C(C)C)-c1c(cc(C(=O)O)c(=O)n1C1CC1)C(C)S2(=O)=O ; read by: antigen / visual reading / absorbance ; cell line: Primary human hepatocytes ; endpoint: EC50 ; value: >0.5 µM
COC(=O)C1=C(C)NC(c2ccccn2)=N[C@@H]1c1ccccc1Cl ; cell line: HepG2.2.15 ; endpoint: EC50 ; value: >100 µM
COc1ccc(-n2c(-c3ccccc3)nc3c(c2=O)C[C@@H](C)N(C(=O)c2ccc(Br)c(C(F)(F)F)c2)C3)cc1 ; read by: PCR ; cell line: HepG2.117 ; endpoint: EC50 ; value: >0.5 µM
CC1=C(C(=O)O)C(c2ccccc2Cl)N=C(c2ccccn2)N1 ; cell line: HepG2.2.15 ; endpoint: EC50 ; value: >100 µM
COc1cccc(CNC(=O)c2ccc3ncnc(Nc4ccc(N5CCOCC5)cc4)c3c2)c1 ; read by: replicon ; cell line: HUH 9B ; endpoint: EC50 ; value: 1–5 µM
COc1ccc([C@@H](C)NC(=O)c2c3n(c(=O)n2-c2ccc(OC(C)C)cc2)CCN(C(=O)c2ccc(Br)c(Cl)c2)C3)c(F)c1 ; read by: PCR ; cell line: HepG2.117 ; endpoint: EC50 ; value: <0.1 µM
N#Cc1cc(C(=O)N2CCc3c(n4ncc(Cc5ccccc5)c4n(-c4ccc(C(N)=O)cc4)c3=O)C2)ccc1Br ; read by: PCR ; conditions: 3 d ; cell line: HepG2.117 ; endpoint: EC50 ; value: >5 µM
CNC(=O)c1ccc(-n2c(N(Cc3ccccc3)C3CN(C)C3)nc3c(c2=O)C[C@@H](C)N(C(=O)c2ccc(Br)c(C(F)(F)F)c2)C3)cc1 ; read by: PCR ; cell line: HepG2.117 ; endpoint: EC50 ; value: >0.5 µM
CC(C)Oc1ccc(-n2c(C(=O)NCc3ccc4occc4c3)c3n(c2=O)CCN(C(=O)c2ccc(Br)c(Cl)c2)C3)cc1 ; read by: PCR ; cell line: HepG2.117 ; endpoint: EC50 ; value: >5 µM
COCCC(C)Oc1cc2c(cc1Cl)-c1c(cc(C(=O)O)c(=O)n1C1CC1)C(C)S2(=O)=O ; read by: antigen / visual reading / absorbance ; cell line: Primary human hepatocytes ; endpoint: EC50 ; value: 0.1–0.5 µM
OC[C@H]1O[C@@H](OCCc2ccc(O)c(O)c2)[C@H](O)[C@@H](O[C@@H]2OC[C@](O)(CO)[C@H]2O)[C@@H]1O ; read by: ELISA / antigen ; cell line: HepG2.2.15 ; endpoint: EC50 ; value: 260 µM
Nc1cn([C@H]2CC[C@@H](CO)O2)c(=O)nc1N ; cell line: HepG2 ; endpoint: EC50 ; value: >10 µM
COc1cc2c(cc1Cl)-c1c(cc(C(=O)O)c(=O)n1C1CC1)C(C)S2(=O)=O ; read by: antigen / visual reading / absorbance ; cell line: Primary human hepatocytes ; endpoint: EC50 ; value: >0.5 µM
C=C(C)[C@H](O)CC[C@]1(C)CC[C@]2(C)[C@H]3CC[C@@]4(C)[C@@H](CCC(=O)[C@@H]4C)[C@]3(C)CC[C@@]2(C)C1 ; cell line: HepG2.2.15 ; endpoint: EC50 ; value: 2.7 µM
Nc1nc(=O)n([C@@H]2C[C@H](O)[C@@H](CO)O2)cc1[N+](=O)[O-] ; cell line: HepG2 ; endpoint: EC50 ; value: 10 µM
CCOCCOc1cc2c(cc1Cl)-c1c(cc(C(=O)OC(C)C)c(=O)n1C1CC1)C(C)S2 ; read by: antigen ; cell line: Primary human hepatocytes ; endpoint: EC50 ; value: 0.1–0.5 µM
COC(=O)C1=C(C)NC(c2ccccn2)=NC1c1ccccc1 ; cell line: HepG2.2.15 ; endpoint: EC50 ; value: 4 µM
C[C@H]1Cn2c(c(C(=O)NC(C)(C)c3ccccc3)n(-c3ccc(-n4cccn4)cc3)c2=O)CN1C(=O)c1ccc(Br)c(Cl)c1 ; read by: PCR ; cell line: HepG2.2.15 ; endpoint: EC50 ; value: 0.1–0.5 µM
C#CCNC(=O)C(=O)c1cc(C(=O)Nc2ccc(F)c(F)c2)n(C)c1 ; read by: PCR ; cell line: HepAD38 ; endpoint: EC90 ; value: >10 µM
C[C@@H]1Cn2c(c(C(=O)NCc3ccccc3-c3ncccn3)n(-c3ccc(-n4cccn4)cc3)c2=O)CN1C(=O)c1ccc(Br)c(C#N)c1 ; read by: PCR ; cell line: HepG2.2.15 ; endpoint: EC50 ; value: 0.1–0.5 µM
COCCCOc1cc2c(cc1Cl)-c1c(cc(C(=O)O)c(=O)n1C1CCC1)C(C)S2(=O)=O ; read by: antigen / visual reading / absorbance ; cell line: Primary human hepatocytes ; endpoint: EC50 ; value: 0.1–0.5 µM
CCOC(=O)c1cccc(NC(=O)c2ccc3ncnc(Nc4ccc(N5CCOCC5)cc4)c3c2)c1 ; read by: replicon ; cell line: HUH 9B ; endpoint: EC50 ; value: 1–5 µM
COc1ccc(Cn2c(=O)c3c(n4ncc(Cc5ccccc5)c24)CN(C(=O)c2ccc(Cl)c(Cl)c2)CC3)cc1 ; read by: PCR ; conditions: 3 d ; cell line: HepG2.117 ; endpoint: EC50 ; value: 0.5–5 µM
CC(C)Oc1ccc(-n2c(C(=O)NCc3ccccc3)c3n(c2=O)CCN(C(=O)c2cc4c(Cl)cccc4s2)C3)cc1 ; read by: PCR ; cell line: HepG2.117 ; endpoint: EC50 ; value: >5 µM
COC(=O)C1=C(C)NC(c2ccccn2)=NC1c1ccccc1F ; cell line: HepG2.2.15 ; endpoint: EC50 ; value: 20 µM
c1ccc(COc2ccc(-c3ccc4ncnc(Nc5ccc(N6CCOCC6)cc5)c4c3)cc2)cc1 ; read by: replicon ; cell line: HUH 9B ; endpoint: EC50 ; value: 1–5 µM
C=C1C(COP(=O)(N[C@@H](C)C(=O)OC)Oc2ccccc2)C(O)C(F)C1n1cnc2c(N)ncnc21 ; cell line: Huh7 ; endpoint: EC90 ; value: 0.46 µM
Nc1nc(=O)n(C2CC[C@@H](CO)O2)cc1[N+](=O)[O-] ; cell line: HepG2 ; endpoint: EC50 ; value: >10 µM
CNC(=O)c1ccc(-n2c(=O)c3c(n4ncc(NCc5ccc(OCC(N)=O)cc5)c24)CN(C(=O)c2ccc(Br)c(Cl)c2)CC3)cc1 ; read by: PCR ; conditions: 3 d ; cell line: HepG2.117 ; endpoint: EC50 ; value: 0.1–0.5 µM
COC(=O)C1=C(C)NC(c2ccccn2)=NC1c1ccccc1Cl ; cell line: HepG2.2.15 ; endpoint: EC50 ; value: 3 µM
COc1ccc(-n2c(C(=O)NCc3ccccc3)c3n(c2=O)CCN(C(=O)c2ccc(Cl)c(Cl)c2)C3)c(F)c1 ; read by: PCR ; cell line: HepG2.17 ; endpoint: EC50 ; value: 0.5–5 µM
Nc1ccn([C@@H]2C=C[C@H](CO)O2)c(=O)n1 ; cell line: HepG2.2.15 ; endpoint: EC50 ; value: 14 µM
COCCCOc1cc2c(cc1C#N)-c1c(cc(C(=O)O)c(=O)n1C1CC1)C(C)S2(=O)=O ; read by: antigen / visual reading / absorbance ; cell line: Primary human hepatocytes ; endpoint: EC50 ; value: 0.1–0.5 µM
Nc1cn([C@H]2C[C@H](O)[C@@H](CO)O2)c(=O)nc1N ; cell line: HepG2 ; endpoint: EC50 ; value: >10 µM
COc1ccc(CNC(=O)c2ccc3ncnc(Nc4ccc(N5CCOCC5)cc4)c3c2)cc1 ; read by: replicon ; cell line: HUH 9B ; endpoint: EC50 ; value: 1–5 µM
CNC(=O)c1ccc(-n2c(-n3cc(C4CC4)cn3)nc3c(c2=O)C[C@@H](C)N(C(=O)c2ccc(Br)c(C(F)(F)F)c2)C3)cc1 ; read by: PCR ; cell line: HepG2.117 ; endpoint: EC50 ; value: >0.05 µM
CCCOc1cc2c(cc1Cl)-c1c(cc(C(=O)O)c(=O)n1C1CC1)C(C)S2(=O)=O ; read by: antigen / visual reading / absorbance ; cell line: Primary human hepatocytes ; endpoint: EC50 ; value: 0.1–0.5 µM
COC(=O)C1=C(C)NC(c2nccs2)=N[C@H]1c1ccc(F)cc1Cl ; cell line: HepG2.2.15 ; endpoint: EC50 ; value: 0.06 µM
CC1c2cc(C(=O)O)c(=O)n(C3CC3)c2-c2cc(Cl)c(OCCC3CC3)cc2S1(=O)=O ; read by: antigen / visual reading / absorbance ; cell line: Primary human hepatocytes ; endpoint: EC50 ; value: 0.05–0.1 µM
C=C1[C@@H](n2cnc3c(N)ncnc32)[C@H](F)[C@H](O)[C@H]1CO ; cell line: Huh7 ; endpoint: EC90 ; value: 6 µM
CC(C)CCN(c1ccc(N2CCOCC2)cc1)c1ncnc2ccc(I)cc12 ; read by: replicon ; cell line: HUH 9B ; endpoint: EC50 ; value: 1–5 µM
C[C@@H]1O[C@@H](O[C@@H]2C3O[C@@H](c4ccc(O)c(O)c4)COC3O[C@H](CO)[C@H]2O)[C@H](O)[C@H](O)[C@H]1O ; read by: ELISA / antigen ; cell line: HepG2.2.15 ; endpoint: EC50 ; value: 720 µM
C[C@H](NC(=O)c1c2n(c(=O)n1C1CC1)CCN(C(=O)c1ccc(Br)c(Cl)c1)C2)c1ccccc1 ; read by: PCR ; cell line: HepG2.117 ; endpoint: EC50 ; value: 0.5–5 µM
FC(F)(F)Oc1ccc2ncnc(Nc3ccc(N4CCOCC4)cc3)c2c1 ; read by: replicon ; cell line: HUH 9B ; endpoint: EC50 ; value: 5–25 µM

5 of the rows above, restated:

structure | read by | conditions | cell line | endpoint | value
C[C@@H]1O[C@@H](O[C@@H]2C3O[C@@H](c4ccc(O)c(O)c4)COC3O[C@H](CO)[C@H]2O)[C@H](O)[C@H](O)[C@H]1O | ELISA / antigen |  | HepG2.2.15 | EC50 | 720 µM
COCCC(C)Oc1cc2c(cc1Cl)-c1c(cc(C(=O)O)c(=O)n1C1CC1)C(C)S2(=O)=O | antigen / visual reading / absorbance |  | Primary human hepatocytes | EC50 | 0.1–0.5 µM
Nc1cn([C@H]2CC[C@@H](CO)O2)c(=O)nc1N |  |  | HepG2 | EC50 | >10 µM
COc1ccc(-n2c(C(=O)NCc3ccccc3)c3n(c2=O)CCN(C(=O)c2ccc(Cl)c(Cl)c2)C3)c(F)c1 | PCR |  | HepG2.17 | EC50 | 0.5–5 µM
Nc1ccn([C@@H]2C=C[C@H](CO)O2)c(=O)n1 |  |  | HepG2.2.15 | EC50 | 14 µM

Rows are shuffled and stem from different studies. An empty or dashed field is not shown. a–b is a range or a potency band.